Anti-infective test results gathered from many reports (values: NIAID ChemDB through PubChem).

Common to all: tests in culture; agent: Hepatitis B virus; cell line: HepG2.2.15; endpoint: EC50

An empty or dashed field is not shown. ECn: concentration that inhibits the pathogen or its effect by n%. Neighbouring rows are from separate reports.

compound | read by | setting | value
O=C(/C=C/C=C/c1ccc(Br)cc1)[Se]c1ccccc1 | PCR |  | 6.7 µM
CC(c1ccc(O)c(O)c1)N1C=NC2C(N)=NC=NC21 | ELISA / antigen |  | 1420 µM
CC(C)=CCC[C@](C)(OC1OC(COC2OCC(O)C(O)C2O)C(O)C(O)C1O)[C@H]1CC[C@]2(C)[C@@H]1[C@H](O)C[C@@H]1[C@@]3(C)CC[C@H](O)C(C)(C)[C@@H]3[C@@H](OC3OC(CO)C(O)C(O)C3OC3OC(CO)C(O)C(O)C3O)C[C@]12C | PCR | 4 d | 3.206 µM
Nc1ccn([C@@H]2CS[C@H](CO)O2)c(=O)n1 |  |  | 0.05 µM
COc1ccc(/C=C/C=C/C(=O)[Se]c2ccccc2)cc1 | PCR |  | 32 µM
COc1cc(C2Oc3cc(O)cc(O)c3C(=O)C2OC2O[C@H](CO)[C@@H](O)[C@H](O)[C@H]2O)ccc1O | ELISA / antigen |  | 332 µM
C[C@H]1[C@H](C)C[C@@H](C(=O)O[C@@H]2O[C@H](CO[C@@H]3O[C@H](CO)[C@@H](O[C@@H]4O[C@H](C)[C@H](O)[C@@H](O)[C@H]4O)[C@H](O)[C@H]3O)[C@@H](O)[C@H](O)[C@H]2O)C2CC[C@]3(C)C(=CC[C@@H]4[C@@]5(C)C[C@@H](O)[C@H](O)[C@@](C)(CO)[C@@H]5CC[C@]43C)[C@H]21 | ELISA / antigen | 14 d | 52.1 µM
COC(=O)C1(O)C[C@H](O)C(OC(=O)/C=C/c2ccc(O)c(O)c2)[C@@H](O)C1 | PCR |  | 175.3 µM
O=C(/C=C/C=C/c1ccccc1)[Se]c1ccccc1 | PCR |  | 16.3 µM
Nc1nc(=O)n([C@@H]2C=C[C@H](CO)O2)cc1F |  |  | <0.1 µM
O=C(/C=C/c1ccc(O)c(O)c1)O[C@@H]1[C@@H](OC(=O)/C=C/c2ccc(O)c(O)c2)C[C@@](O)(C(=O)O)C[C@@H]1O | ELISA / antigen |  | 71.6 µM
O=C(/C=C/c1ccc(O)cc1)[Se]c1ccccc1 | PCR |  | 7.4 µM
COC(=O)[C@]1(O)C[C@@H](O)[C@@H](O)[C@H](OC(=O)/C=C/c2ccc(O)c(O)c2)C1 | PCR |  | 272.3 µM
C=C1CC[C@@H](O)[C@]2(C)CC[C@@H](C(C)C)[C@H](O)[C@@H]12 | ELISA / antigen |  | 108 µM
Nc1ncnc2c1ncn2[C@@H]1C=C[C@H](CO)O1 |  |  | >10 µM
COC(=O)[C@]1(O)C[C@H](OC(=O)/C=C/c2ccc(O)c(O)c2)[C@@H](O)[C@@H](O)C1 | PCR |  | 144.7 µM
Nc1ccn([C@@H]2CC[C@H](CO)O2)c(=O)n1 |  |  | 0.1 µM
O=C(O)c1ccc(O)c(O)c1 | PCR |  | 32.6 µM
Nc1nc(=O)n([C@@H]2C[C@@H](F)[C@H](CO)O2)cc1F |  |  | 4 µM
O=C(C=Cc1ccc(O)c(O)c1)O[C@@H]1C[C@](O)(C(=O)O)C[C@@H](O)[C@H]1O | PCR |  | 5.5 µM